# PubChem BioAssay AID1259414, Drosophila RNAi Screening Center, 2018
# Purpose: 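Host factors increasing or decreasing Wolbachia levels in cultured fly cells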 (primary screen)
# System: Drosophila JW18 cells infected with Wolbachia
# Knock-down reagent: long dsRNA against Drosophila genes, 0.25 µg dsRNA per well of a 384-well plate
# Time to read-out: 5 days
# Conditions: cells persistently infected with Wolbachia before knock-down; no added drug
# Read-out: 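Automated imaging of bacterial rRNA staining divided by host cell count, reported as plate-normalised robust z-score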
# Scale: Wolbachia per cell robust z: higher = more Wolbachia per host cell than the plate typical
# Call rule: 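Hit when robust z is 1.5 or more, or -1.5 or less, in at least two of three replicates; excludes dsRNAs with several or no targets, genes not expressed in JW18 and well A1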
# In all, the deposit lists about 24,000 reagents; shown is an unselected part of those that have a named target and a result. Over the whole deposit, about 1,210 (5%) are marked active. 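Inactive calls also include excluded dsRNAs with several or no targets, genes unexpressed in JW18, and well A1, regardless of score.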 Entries without a mark were called inactive. The numbers tell different reagents against one gene apart.
Gene,reagent,"Wolbachia per cell robust z, rep 1","Wolbachia per cell robust z, rep 2","Wolbachia per cell robust z, rep 3"
PTPMT1 (GeneID 42807),1,0.592 (active),-2.13,-1.64
CG32987 (GeneID 318273),1,-1.04,-0.123,-0.689
CG32987 (GeneID 318273),2,-2.99,-1.03,0.547
jim (GeneID 43924),1,-1.89,0.216,0.133
jim (GeneID 43924),2,0.462,0.0227,-0.415
mthl14 (GeneID 318046),1,0.262,1.3,-0.237
nAChRbeta2 (GeneID 42920),1,1.15,1.2,-0.0912
CG15128 (GeneID 37263),1,0.421,-0.24,0.192
RhoU (GeneID 31945),1,0.537,-0.11,0.0154
RhoU (GeneID 31945),2,0.0303,-0.504,-0.111
RhoU (GeneID 31945),3,0.623,1.24,0.321
RhoU (GeneID 31945),4,-0.332,0.884,0.319
RhoU (GeneID 31945),5,-0.688,0.33,-2.19
RhoU (GeneID 31945),6,0.567,0.739,0.318
CG1824 (GeneID 32208),1,0.237,-0.00815,-0.0774

2 entries already listed, ordered by “Wolbachia per cell robust z, rep 3”, descending:
Gene,reagent,"Wolbachia per cell robust z, rep 1","Wolbachia per cell robust z, rep 2","Wolbachia per cell robust z, rep 3"
RhoU (GeneID 31945),3,0.623,1.24,0.321
RhoU (GeneID 31945),2,0.0303,-0.504,-0.111

More results:
Gene,reagent,"Wolbachia per cell robust z, rep 1","Wolbachia per cell robust z, rep 2","Wolbachia per cell robust z, rep 3"
snoRNA:Me18S-C1280 (retired record) (GeneID 5740487),1,0.119,-1.18,-0.259
Gr98c (GeneID 117336),1,0.835,0.981,1.54
Gr98c (GeneID 117336),2,-5.22,-4.09,-1.05
Camp (GeneID 36948),1,0.0665,0.479,0.803
Nadk2 (GeneID 35918),1,-0.0509,-0.285,-0.555
Nadk2 (GeneID 35918),2,-1.08,0.268,-2.85
Neu2 (GeneID 40375),1,-0.332,-8.98,0.0765
Neu2 (GeneID 40375),2,0.57,0.743,0.241
CG14052 (GeneID 31203),1,0.456,0.895,0.613
CG14052 (GeneID 31203),2,-4.15,-1.07,-2.55
CG14052 (GeneID 31203),3,-0.779,0.556,1.33
Gr59c (GeneID 192481),1,0.134,-5.35,-0.539
CG34241 (GeneID 5740575),1,0.623,0.0727,0.463
